Compound potency records, mixed from different reports. Data source: NIAID ChemDB in PubChem.

All rows: growth or infection tests; organism: Candida albicans; measure: MIC

Blank or dashed fields: not listed here.

structure	strain or isolate	value
CCCCCCCCCCCCSC[N+](C)(C)CCCCCCCCCCCC	ATCC 10231	215 µM
N/C(=N\NC(=O)c1ccc(Cl)cc1Cl)SCc1cccc(Cl)c1	-	>100 µg/mL
CCCCCCCCCCCC[N+](C)(C)COC(C)C	ATCC 10231	311 µM
O=[N+]([O-])c1ccc(S(=O)(=O)Nc2ccc3c(c2)Sc2ccccc2O3)cc1Cl	C316	1 µg/mL
Cc1[nH]n(CCO)c(=O)c1N=Nc1ccc(-c2n[nH]c(=S)o2)cc1	ATCC 2091	62.5 µg/mL
C=CCS/C(N)=N/NC(=O)c1ccccc1	-	>100 µg/mL
COc1ccc(-c2c(C#N)c(OC)nc3c2CSc2ccc(Cl)cc2-3)cc1O	-	100 µg/mL
COc1ccc(C(=O)N/N=C(\N)SC)cc1	-	>100 µg/mL
Cc1[nH][nH]c(=O)c1N=Nc1ccc(-c2n[nH]c(=S)o2)cc1	ATCC 2091	62.5 µg/mL
CN(CCCC#CC(C)(C)C)c1cccc2c1CCC(=O)N2	Clinical isolate 21	62.5 µg/mL
C=CCS/C(N)=N/NC(=O)c1ccc(OC)cc1	-	>100 µg/mL
Cc1[nH]n(CCO)c(=O)c1N=Nc1ccc(-c2n[nH]c(=O)n2-c2ccccc2)cc1	ATCC 2091	62.5 µg/mL
CC(C)C1C[C@H]2C[C@]3(C=O)[C@@H]4CC[C@@H](C)[C@H]4C[C@@]2(CO[C@H]2CN(C4CC4)C[C@@H](C)O2)[C@]13C(=O)O	CL-245 (fluconazole-resistant)	≤0.001 µg/mL
Cc1ccc(S(=O)(=O)N/N=C2C=C3/C(=N/NS(=O)(=O)c4ccc(C)cc4)CC4C(CC[C@]5(C)[C@@H]([C@H](C)CCCC(C)C)CC[C@@H]45)[C@@]3(C)CC/2)cc1	CIP 1180-79	>50 µg/mL
O=C(/C=C/c1ccc(O)cc1O)c1ccccc1	SDAU1	75 µg/mL
CCCCCCCCC[C@@H]1CC(=O)NCC(=O)N[C@@H](CCCCNC(C)=O)C(=O)N[C@@H](C(C)C)C(=O)N1	ATCC 24433	>16 µg/mL
O=c1[nH]c2cc([N+](=O)[O-])ccc2nc1CBr	ATCC 90029	8–62.5 µg/mL
CCCCCCCCOc1ccc(C(=O)NC2C[C@@H](O)[C@@H](O)NC(=O)C3[C@@H](O)[C@@H](C)CN3C(=O)C(C(C)O)NC(=O)C([C@H](O)[C@@H](O)c3ccc(O)cc3)NC(=O)C3C[C@@H](O)CN3C(=O)C(C(C)O)NC2=O)cc1	MY1783	1 µg/mL
C=CCn1c(-c2ccc(N=Nc3c(C)[nH]n(-c4ccccc4)c3=O)cc2)n[nH]c1=S	ATCC 2091	62.5 µg/mL
Cc1ccc(S(=O)(=O)NC(=O)Nc2cccc(S(=O)(=O)Nc3ccc4c(c3)Sc3ccccc3O4)c2)cc1	C316	0.5 µg/mL
COc1ccc2c(c1)C1=C(CS2)C(c2ccc3c(c2)OCO3)C(C#N)=C(N)O1	-	6 µg/mL
CCCCCCCCCCCC[N+](C)(C)COCCCCCCCCCCC	ATCC 10231	115 µM
CCOC(=O)N/N=C1/C=C2C[C@@H](O)CC[C@]2(C)C2CC[C@]3(C)[C@@H]([C@H](C)CCCC(C)C)CC[C@H]3C12	CIP 1180-79	12.5 µg/mL
O=S(=O)(Nc1ccc2c(c1)Sc1ccccc1O2)C(F)(F)F	C316	33 µg/mL
C[C@@H](c1ncncc1F)[C@](O)(Cn1cncn1)c1ccc(F)cc1F	Isolate 1490	0.03 µg/mL
Cc1ccc(S(=O)(=O)N/N=C2/C=C3C[C@@H](O)CC[C@]3(C)C3CC[C@]4(C)[C@@H]([C@H](C)CCCC(C)C)CC[C@H]4C23)cc1	CIP 1180-79	12.5 µg/mL
O=c1[nH]c2ccc(C(F)(F)F)cc2nc1CBr	ATCC 90029	15.6–62.5 µg/mL
O=S(=O)(Nc1ccc2c(c1)Sc1ccccc1O2)c1ccc(Cl)cc1	C316	9 µg/mL
O=c1[nH]c2cc(F)c(F)cc2nc1CBr	ATCC 90029	15.6–62.5 µg/mL
NC(=S)NNC(=O)c1ccc(Cl)cc1	-	>100 µg/mL
CCCCCCCCC[C@@H]1CC(=O)NCC(=O)N[C@@H](CCCCNCCC)C(=O)N[C@@H](C(C)C)C(=O)N1	ATCC 24433	8 µg/mL
CCCCCCCCCCCC[N+](C)(C)COCCCCCCCC	ATCC 10231	128 µM
COc1cc(O)c2c(c1)C(=O)c1c(cc3c(c1O)-c1c(cc(C)c(C(=O)NC(CO)C(=O)O)c1O)[C@H](OC1OC(C)C(N(C)C)C(OC4OCC(O)C(O)C4O)C1O)[C@H]3O)C2=O	A9540	6.3 µg/mL
CCCCCCCCCCCC[N+](C)(C)COC1CCCC1	ATCC 10231	144 µM
CCCCCCCCC[C@@H]1CC(=O)NCC(=O)N[C@@H](CCCCN)C(=O)N[C@@H](C(C)C)C(=O)N1	ATCC 24433	4 µg/mL
CC(C)CCC[C@@H](C)[C@H]1CC[C@H]2C3C/C(=N\Nc4ccccc4)C4C[C@@H](O)CC[C@]4(C)C3CC[C@]12C	CIP 1663-86	12.5 µg/mL
O=C(Nc1nc2ccc(NC(=O)[C@@H]3CCC[C@H](NCc4ccc5ccccc5c4)C3)cc2s1)C1CCCC1	IFM 47597 (KB)	3.13 µM
N#CC1=C(N)OC2=C(CSc3ccc(Cl)cc32)C1c1ccccc1	-	50 µg/mL
CCCCCCCCC[C@@H]1CC(=O)NCC(=O)N[C@@H](CCCCN)C(=O)N[C@@H](CCC(=O)O)C(=O)N1	ATCC 24433	64 µg/mL
Cc1ccc(O)c(C(=O)/C=C/c2ccc(O)cc2O)c1	SDAU3	50 µg/mL
Nc1[nH]c(=O)ncc1F	1001	1.56 µg/mL
CC(C)CCC[C@@H](C)[C@H]1CC[C@H]2C3C(CC[C@]12C)[C@@]1(C)CC/C(=N\N)C[C@@H]1C[C@@H]3O	CIP 1180-79	25 µg/mL
CCCCCCCCC[C@@H]1CC(=O)NCC(=O)N[C@@H](CCCN=C(N)N)C(=O)N[C@@H](C(C)C)C(=O)N1	ATCC 24433	2 µg/mL
N#CC1=C(N)OC2=C(CSc3ccccc32)C1c1ccc2c(c1)OCO2	-	50 µg/mL
C=C(CF)CN1C[C@H](OC[C@@]23C[C@@H]4[C@H](C)CC[C@H]4[C@@]4(C=O)C[C@@H]2CC(C(C)C)[C@@]34C(=O)O)O[C@H](C)C1	CL-236	0.002 µg/mL
Cc1cc(-c2ccccc2)cc(C)[n+]1-c1cccc(S(=O)(=O)Nc2ccc3c(c2)Sc2ccccc2O3)c1	C316	7 µg/mL
Cc1c(S(=O)(=O)c2ccccc2)[n+](=O)c2ccccc2n1[O-]	Clinical isolate 12	31.25 µg/mL
CCCCCCCCC[C@@H]1CC(=O)NCC(=O)N[C@@H](CCCCN(C)Cc2ccccc2)C(=O)N[C@@H](C(C)C)C(=O)N1	ATCC 24433	>128 µg/mL
O=[N+]([O-])c1ccccc1SNc1ccc2c(c1)Sc1ccccc1O2	C316	0.9 µg/mL
O=C1C[C@@H](c2ccccc2)Oc2cc(O)cc(O)c21	-	3 µg/mL
CCCCCCCCC[C@@H]1CC(=O)NCC(=O)N[C@@H](CCCN)C(=O)N[C@@H](C(C)C)C(=O)N1	ATCC 24433	4 µg/mL
CCCCCCCCOc1ccc(C(=O)NC2C[C@@H](O)[C@@H](O)NC(=O)C3[C@@H](O)[C@@H](C)CN3C(=O)C(C(C)O)NC(=O)C([C@H](O)[C@@H](O)c3ccc(O)cc3)NC(=O)C3C[C@@H](O)CN3C(=O)C(C(C)O)NC2=O)cc1	CS	0.5 µg/mL
N#CC1=C(c2ccccc2)C2=C(NC1O)c1ccccc1SC2	-	50 µg/mL
CCCCCCCCCCCC[N+](C)(C)COC(CC)CCCCC	ATCC 10231	12.8 µM
CC(C)CCC[C@@H](C)[C@H]1CC[C@H]2C3C/C(=N\N)[C@H]4C[C@@H](O)CC[C@]4(C)C3CC[C@]12C	CIP 1180-79	25 µg/mL
C=C(C)CN1C[C@H](OC[C@@]23C[C@@H]4[C@H](C)CC[C@H]4[C@@]4(C=O)C[C@@H]2CC(C(C)C)[C@@]34C(=O)O)O[C@H](C)C1	CL-236	0.002 µg/mL
CCCCCCCCCCCC[N+](C)(C)COCC(C)C	ATCC 10231	298 µM
CCCCCCCCCCC[C@@H]1CC(=O)NCC(=O)N[C@@H](CCCCN)C(=O)N[C@@H](CC2CCCCC2)C(=O)N1	ATCC 24433	64 µg/mL
COc1cc(C(=O)N/N=C(\N)SC)cc(OC)c1OC	-	>100 µg/mL
CCOc1cc2c(cc1F)n([O-])c(C)c(Cl)[n+]2=O	Clinical isolate 2	15.6 µg/mL
CCCCCCCCC[C@@H]1CC(=O)NCC(=O)N[C@@H](CCCCNC)C(=O)N[C@@H](C(C)C)C(=O)N1	ATCC 24433	4 µg/mL
Cc1c(Cl)[n+](=O)c2cc(Cl)ccc2n1[O-]	Clinical isolate 9	15.6 µg/mL
COc1ccc(C(=O)NNC(N)=S)cc1	-	>100 µg/mL
COc1nc2c(c(-c3ccc4c(c3)OCO4)c1C#N)CSc1ccccc1-2	-	25 µg/mL
CCCCCCCCCCCC[N+](C)(C)COC(C)CCC	ATCC 10231	143 µM
Cc1c(Sc2ccccc2)[n+](=O)c2cc(C(F)(F)F)ccc2n1[O-]	Clinical isolate 12	31.25 µg/mL
CCCCCCCCCCCCCCCCCC(=O)NC1CC(O)C(O)NC(=O)C2C(O)C(C)CN2C(=O)C(C(C)O)NC(=O)C(C(O)C(O)c2ccc(O)cc2)NC(=O)C2CC(O)CN2C(=O)C(C(C)O)NC1=O	MY1783	2 µg/mL
O=[N+]([O-])c1ccc(SNc2ccc3c(c2)Sc2ccccc2O3)cc1	C316	1.1 µg/mL

A second listing of 8 rows from above:

structure,strain or isolate,value
NC(=S)NNC(=O)c1ccc(Cl)cc1,-,>100 µg/mL
CCCCCCCCOc1ccc(C(=O)NC2C[C@@H](O)[C@@H](O)NC(=O)C3[C@@H](O)[C@@H](C)CN3C(=O)C(C(C)O)NC(=O)C([C@H](O)[C@@H](O)c3ccc(O)cc3)NC(=O)C3C[C@@H](O)CN3C(=O)C(C(C)O)NC2=O)cc1,CS,0.5 µg/mL
N#CC1=C(c2ccccc2)C2=C(NC1O)c1ccccc1SC2,-,50 µg/mL
Cc1ccc(S(=O)(=O)NC(=O)Nc2cccc(S(=O)(=O)Nc3ccc4c(c3)Sc3ccccc3O4)c2)cc1,C316,0.5 µg/mL
C[C@@H](c1ncncc1F)[C@](O)(Cn1cncn1)c1ccc(F)cc1F,Isolate 1490,0.03 µg/mL
COc1ccc(C(=O)NNC(N)=S)cc1,-,>100 µg/mL
C=CCS/C(N)=N/NC(=O)c1ccc(OC)cc1,-,>100 µg/mL
CCCCCCCCCCCC[N+](C)(C)COCCCCCCCCCCC,ATCC 10231,115 µM

Two numbers with a dash give a range or band. Lines come from different laboratories, so protocols vary.